Measurements reported in PubChem BioAssay AID624099 (ICCB-Longwood, 2012)
This is one part, drawn at random, of about 21,000 deposited reagents. 497 of them (2.4%) count as active. 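Higher z means weaker E2 silencing; only reporter increases were scored, and knock-downs that hurt cell survival may mask genuine repressor factors.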

- Purpose: 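Knock-downs relieving repression by E2 of an HPV18 LCR luciferase reporter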 (primary screen)
- Cell system: human C33A cervical carcinoma cells (HPV-negative) stably expressing BPV1 E2 and an HPV18 LCR luciferase reporter
- Knock-down reagent: siRNA pool against human genes, 40 nM
- Timing: 72 h
- Detection: 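HPV18 LCR reporter light per well, converted to plate-wise z-scores that exclude control wells, and averaged over triplicate plates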
- Direction: mean z-score and z-score: higher = stronger reporter signal, weaker E2 silencing
- Rule for the call: 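Hit if mean z-score reaches 2 and two or more of three replicate z-scores also reach 2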

MAP3K19 (GeneID 80122)
- mean z-score: 0.76
- z-score, replicate A: 1.07
- z-score, replicate B: 0.7
- z-score, replicate C: 0.51
- call: inactive

NRTN (GeneID 4902)
- mean z-score: -0.39
- z-score, replicate A: -0.38
- z-score, replicate B: -0.51
- z-score, replicate C: -0.29
- call: inactive

SPAG11B (GeneID 10407)
- mean z-score: 1.03
- z-score, replicate A: 1.21
- z-score, replicate B: 0.88
- z-score, replicate C: 0.98
- call: inactive

OR11G2 (GeneID 390439)
- mean z-score: 2.06
- z-score, replicate A: 2.27
- z-score, replicate B: 2.08
- z-score, replicate C: 1.84
- call: active

GLYR1 (GeneID 84656)
- mean z-score: 0.56
- z-score, replicate A: 0.47
- z-score, replicate B: 0.56
- z-score, replicate C: 0.65
- call: inactive

LOC138972 (retired record) (GeneID 138972)
- mean z-score: -1.29
- z-score, replicate A: -0.98
- z-score, replicate B: -1.5
- z-score, replicate C: -1.39
- call: inactive

Copied from the list.
Under “call”, SPAG11B (GeneID 10407) is entered as inactive
Under “z-score, replicate C”, LOC138972 (retired record) (GeneID 138972) has -1.39

Additional reagents:
TRIP10 (GeneID 9322)
- mean z-score: 0.44
- z-score, replicate A: 0.82
- z-score, replicate B: 0.17
- z-score, replicate C: 0.32
- call: inactive

MOB1B (GeneID 92597)
- mean z-score: 1.53
- z-score, replicate A: 1.77
- z-score, replicate B: 1.7
- z-score, replicate C: 1.12
- call: inactive

ACSF3 (GeneID 197322)
- mean z-score: -1.54
- z-score, replicate A: -1.2
- z-score, replicate B: -1.71
- z-score, replicate C: -1.7
- call: inactive

CDK5R1 (GeneID 8851)
- mean z-score: 0.5
- z-score, replicate A: 0.43
- z-score, replicate B: 0.42
- z-score, replicate C: 0.64
- call: inactive

MESP1 (GeneID 55897)
- mean z-score: -0.03
- z-score, replicate A: -0.24
- z-score, replicate B: -0.1
- z-score, replicate C: 0.26
- call: inactive

SCN2A (GeneID 6326)
- mean z-score: -1.31
- z-score, replicate A: -1.43
- z-score, replicate B: -1.37
- z-score, replicate C: -1.12
- call: inactive

ST3GAL6 (GeneID 10402)
- mean z-score: 0.82
- z-score, replicate A: 0.57
- z-score, replicate B: 0.9
- z-score, replicate C: 0.98
- call: inactive

UNC5D (GeneID 137970)
- mean z-score: 0.21
- z-score, replicate A: 0.25
- z-score, replicate B: 0.21
- z-score, replicate C: 0.18
- call: inactive
